Library screen at single concentrations

A: 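Phenotypic screen: M. tuberculosis growth, glucose 7H9 medium, 3 days; the read-out is not stated. Compounds at 500 µM. Higher reads as more growth inhibition (inferred: compounds with an IC50 in retests scored well above the rest). Size under these conditions: about 18,000 compounds, about 1,400 of them at 50% or above in at least one test.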
B: 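Growth of Mycobacterium tuberculosis over 4 days (cholesterol / DPPC medium with tyloxapol); the read-out is not stated. Tested at 500 µM. Higher reads as more growth inhibition (inferred: compounds with an IC50 in retests scored well above the rest). Of about 18,000 compounds tested this way, about 900 (5%) reached 50% or more in at least one test.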

Each number is a percent effect as filed. The controls that fix the scale are not given in the record; negative values are as filed. The entries come from a sample that favours strong results. A dash means the value is not listed here; it may have been measured.

| # | SMILES | A | B |
|---|---|---|---|
| 1 | `CCC[C@H]1CN(S(=O)(=O)N(C)CC)C[C@@H]1N` | - | 11.37% |
| 2 | `Cc1ccc2c(c1)C(N)C(=O)N2C` (stereo unspecified) | 7.29% | -12.2% |
| 3 | `O=C(CCC(=O)c1ccccc1)NCc1cccnc1` | 3.137% | -31.9% |
| 4 | `CCc1nnsc1C(=O)NCc1cnn(C)c1` | -5.44% | - |
| 5 | `Cc1ccccc1CNC(=O)CCNS(C)(=O)=O` | - | 0.6089% |
| 6 | `NC1CCN(c2cccc(Cl)c2)C1` (stereo unspecified) | -9.639% | -7.494% |
| 7 | `CCc1cnc(NCCCN2CCN(C)CC2)nc1` | 14.88% | - |
| 8 | `O=C(c1cscn1)N1CCN(c2ccc(Cl)cn2)CC1` | 81.54% | 85.19% |
| 9 | `Cc1cc(-n2cccn2)ccc1NC(=O)CN(C)C` | 32.21% | - |
| 10 | `COc1ccc(S(=O)(=O)Nc2cc(C)ccn2)cc1` | -3.636% | - |
| 11 | `NC(=O)NC1CCN(C(=O)Cc2ccc(Br)cc2)CC1` | - | -13.37% |
| 12 | `CCNCc1cccc(NC(=O)C(C)COC)c1` (stereo unspecified) | 45.85% | - |
| 13 | `CCOc1cc(NCc2ncc(C)o2)ncn1` | 59.04% | 40.46% |
| 14 | `CNC(=O)[C@@H](C)Nc1nc(-c2ccccc2)ns1` | 34.71% | - |
| 15 | `CC1CS(=O)(=O)CCN1C(=O)CCCSC(C)(C)C` (stereo unspecified) | - | 3.684% |
| 16 | `O=C(NCCCN1CCCCC1)c1ccccc1` | 0.326% | - |
| 17 | `CC(C)[C@H](N)C(=O)N(C)c1ccccc1` | -1.017% | - |
| 18 | `CCSc1ccccc1NC(=O)NCCNC(C)=O` | 26.65% | - |
| 19 | `CN1CCN(C(=O)CC2Cc3ccccc3C2)CC1` | 70.1% | 60.88% |
| 20 | `Oc1cc(C(F)(F)F)ccn1` | -2.963% | - |
| 21 | `N#CCc1ccc(CO)cc1` | 8.551% | -9.457% |
| 22 | `COC(=O)c1cn(CCO)nn1` | 1.945% | - |
| 23 | `NCC1CCN(Cc2ccsc2)CC1` | 1.746% | - |
| 24 | `CSc1cncc(NCCC(=O)N2CCCC2)n1` | 62.57% | 53.66% |
| 25 | `CCc1ccc(CN(CC)[C@H]2COC[C@@H]2O)nc1` | 35.36% | - |
| 26 | `NCCCc1cccc(O)c1` | 9.178% | 15.81% |
| 27 | `CNC(=O)c1ccc(S(=O)(=O)NCC(C)C)cc1` | 25.9% | - |
| 28 | `CC(=O)Nc1ccc(CC(=O)N2CCOCC2)cc1` | 6.924% | - |
| 29 | `CCNC(=O)CSc1nccn1C1CC1` | - | -22.34% |
| 30 | `CN(Cc1ccc2c(c1)OCO2)C(=O)Cc1cccs1` | 77.2% | 82.63% |
| 31 | `CNC(=O)c1ccc(CO)o1` | -12.52% | - |
| 32 | `Nc1nnc(CC(=O)N2CCCC2)[nH]1` | 13.17% | - |
| 33 | `NCc1coc(-c2cccs2)n1` | 80.76% | 71.56% |
| 34 | `CN(C)c1cc(CNC(=O)C2CCCO2)ccn1` (stereo unspecified) | 7.874% | - |
| 35 | `CCc1ccsc1C(=O)NCCCN1CCN(C)CC1` | 22.64% | - |
| 36 | `CCN1CCN(C(=O)c2cccc(C)c2O)CC1` | 14.19% | - |
| 37 | `COCc1nnc(N)s1` | 6.122% | - |
| 38 | `O=C(Nc1ccc(Cl)cn1)c1ccncc1` | 52.05% | 34.75% |
| 39 | `CCC(CC)NC(=O)Nc1ccn(CCN(C)C)n1` | 11.99% | - |
| 40 | `CC(C)[C@H]1CN(CCC(=O)NC2CCCC2)C[C@@H]1N` | 12.89% | - |
| 41 | `NC(=O)CSc1nc(-c2ccc(Br)cc2)c[nH]1` | 87.97% | 109.9% |
| 42 | `CS(=O)(=O)Nc1cccc(C(=O)Nc2ccccc2)c1` | 59.56% | - |
| 43 | `COCCOc1ccc(NC(=O)CSC(C)(C)C)cn1` | -154.2% | -191.9% |
| 44 | `COc1ccc(F)c(N2CCNCC2)c1` | 44.86% | - |
| 45 | `CCc1ccc(CNc2ccc(CO)cn2)cc1` | 70.54% | 89.12% |
| 46 | `c1ccc(-c2nnc(CC3CCNC3)[nH]2)cc1` (stereo unspecified) | - | -17.24% |
| 47 | `CC(c1ccncc1)N(C)C(=O)CNC(=O)N(C)C` (stereo unspecified) | 14.24% | - |
| 48 | `CNC(=O)[C@@H](C)NC(=O)c1ccc(-c2ccc(C)o2)s1` | 67.9% | 68.2% |
| 49 | `COc1ccc(C(C)N)c(C)c1OC` (stereo unspecified) | 2.429% | -11.91% |
| 50 | `CC(=O)N(C)CC(=O)N1CCSCC1` | -4.374% | - |
| 51 | `COCC(C)NC(=O)CCNC(=O)c1cccc(C)c1` (stereo unspecified) | - | -7.85% |
| 52 | `NCc1ccncc1OCC(F)F` | - | 5.033% |
| 53 | `CCN1CCC(CNCc2ccco2)C1` (stereo unspecified) | - | -7.241% |
| 54 | `O=C(Oc1nsnc1N1CCOCC1)c1ccccc1` | -4.035% | -9.24% |
| 55 | `NC1CCCN(Cc2ccccc2OCCO)CC1` (stereo unspecified) | 24.65% | - |
| 56 | `c1ccc(CNC2CCSC2)nc1` (stereo unspecified) | 26.55% | - |
| 57 | `CC1CCCN(CCNS(=O)(=O)CCCS(C)(=O)=O)C1` (stereo unspecified) | 15.45% | - |
| 58 | `CC(=O)c1cccc(C(=O)NC(C)c2nc(C)c[nH]2)c1` (stereo unspecified) | 9.206% | - |
| 59 | `OCCOCCN1CCC(=Cc2ccccc2)CC1` | 65.48% | 34.52% |
| 60 | `CCOC(=O)CNS(=O)(=O)c1c(C)ccc2nsnc12` | 21.85% | - |
| 61 | `CCN(CCO)Cc1cc(=O)n2ccsc2n1` | -10.89% | -16.34% |
| 62 | `CCN1CCN(CCS(=O)(=O)c2ccccc2)CC1` | 13.8% | 23.39% |
| 63 | `OCC1(Cc2ccc(F)cc2)CCNC1` (stereo unspecified) | - | -8.381% |
| 64 | `Cc1cccc(=O)n1CCCNC(=O)c1cnco1` | - | -17.74% |
| 65 | `O=c1[nH]nc(CNc2ccc(Br)cc2)[nH]1` | 44.26% | - |
| 66 | `COCCC1(CO)CCCN(C(=O)c2ccncc2)C1` (stereo unspecified) | 2.215% | - |
| 67 | `CCOc1cc(C(=O)OCCCn2cccn2)ccn1` | 4.539% | 3.146% |
| 68 | `CNC(=O)[C@@H]1CN(C(=O)c2cc(C)n[nH]2)C[C@H]1COC` | -6.858% | - |
| 69 | `O=C(CC1COCCN1Cc1ccon1)c1cccs1` (stereo unspecified) | 55.18% | - |
| 70 | `O[C@@H]1CCN(CC=Cc2ccc(F)cc2)C1` | -7.441% | 19% |
| 71 | `CCOc1ccc(Cn2cc(Br)ccc2=O)nc1` | 32.72% | 29.6% |
| 72 | `NCc1ccncc1OCC(F)(F)F` | 25.55% | 70.97% |
| 73 | `CCN(CC)CCNCCCN` | - | -1.071% |
| 74 | `OCCC1(NCc2ccc(F)cc2)CCOCC1` | - | 4.381% |
| 75 | `CC1CCN(C(=O)COc2ncccn2)CC1` | - | 26.82% |
| 76 | `COc1ccc(C)cc1C(=O)NCCCC(=O)N(C)C` | 13.21% | - |
| 77 | `CC(=O)c1ccccc1NC(=O)CN1CC[C@H](N)C1` | 56.22% | 22.53% |
| 78 | `Cc1cc(C)c(O)c(C(=O)NCCCS(N)(=O)=O)c1` | 44.55% | - |
| 79 | `COC(=O)c1snc(C(=O)NCc2ccccc2)c1N` | 40.67% | - |
| 80 | `Cc1noc(CN2CCC(NC(=O)C(C)C)CC2)n1` | -5.851% | - |
| 81 | `Cn1nnnc1SCCNCc1ccc(F)cc1` | 21.18% | 43.1% |
| 82 | `NC(=O)[C@H](Cc1ccccc1)NC(=O)c1cnn[nH]1` | - | -13.7% |

For reference, 5 entries once more:

For CCN1CCN(C(=O)c2cccc(C)c2O)CC1 the result was A: 14.19%.
For CC(C)[C@H]1CN(CCC(=O)NC2CCCC2)C[C@@H]1N the result was A: 12.89%.
For CCc1ccc(CNc2ccc(CO)cn2)cc1 the result was A: 70.54%; B: 89.12%.
For O=C(Oc1nsnc1N1CCOCC1)c1ccccc1 the result was A: -4.035%; B: -9.24%.
For NC1CCN(c2cccc(Cl)c2)C1 (stereo unspecified) the result was A: -9.639%; B: -7.494%.

The values are deposited in ChEMBL (CHEMBL3988442, “University of Dundee, Small-Polar-MMV Screening Library” (2021)).